Pooled drug test results. Numbers come from NIAID ChemDB, via PubChem.

Shared fields: tests in culture; organism: HIV-1; method: p24; endpoint: EC50

a–b is a range or a potency band. Conditions beyond the fields shown may differ between rows. ECn: concentration that inhibits the pathogen or its effect by n%. An empty or dashed field is not shown.

smiles,strain or isolate,mutations,cell line,conditions,value
COc1ccc2c(c1)C1=C(CC2)C(=O)NCCN1CCC(C)C,-,-,OM-10.1,-,1.8 µM
CC(C)CCC[C@@H](C)[C@H]1CC[C@H]2[C@@H]3CC[C@H]4C[C@@H](CCC=C(c5cc(Cl)c(O)c(C(=O)O)c5)c5cc(Cl)c(O)c(C(=O)O)c5)CC[C@]4(C)[C@H]3CC[C@]12C,WEJO,-,PBLC,-,33 µM
CN(CC(=O)Nc1ccccc1[N+](=O)[O-])c1nnnn1-c1cccc2ccccc12,-,-,MT-4,-,<10 µM
C[C@H](NC(=O)[C@@H]1CCCN1C(=O)[C@@H](NC(=O)[C@@H](N)[C@@H](C)O)[C@@H](C)O)C(=O)O,JR-CSF,-,PBMC (PHA stimulated) + PBMC,7 d,>0.1 µM
Nc1nccc2c1ncn2[C@@H]1C[C@H](O)[C@@H](O)[C@H]1O,A018,-,PBMC,-,2.84 µM
Nc1nc2c(ncn2[C@H]2CC[C@@H](CO)O2)c(=O)[nH]1,LAI,-,PBL(PHA STIM.) + PBL,-,<2.5 µM
O=C(CCSc1nnnn1-c1cccc2ccccc12)Nc1ccccc1Cl,-,-,MT-4,-,<10 µM
COC(=O)[C@H](C)NP(=O)(OC[C@@H]1C=C[C@H](n2cc(C)c(=O)[nH]c2=O)O1)Oc1ccccc1,IIIB,-,PBMC,-,0.002 µM
CO.S=C([N-]c1ccc(Br)cn1)NCCc1ccccc1Cl.S=C([N-]c1ccc(Br)cn1)NCCc1ccccc1Cl.[O]=[V+2],IIIB,-,PBMC,-,0.08 µM
COC(=O)C(C)NP(=O)(OC[C@@H]1C=C[C@H](n2cc(C)c(=O)[nH]c2=O)O1)OC1C=CC=CC1(OC)OC,IIIB,-,PBMC,-,0.006 µM
COc1cccc(CN2CCNC(=O)c3sc4ccc([N+](=O)[O-])cc4c32)c1,-,-,OM-10.1,-,0.03 µM
CC(=O)Nc1ccc(S(=O)(=O)N(CC(C)C)C[C@@H](O)[C@H](Cc2ccccc2)NC(=O)OC(C)(C)C)cc1,IIIB,-,CEM,-,<10 µM
Nc1nc(Cl)c2ncn([C@@H]3O[C@H](CO)C[C@@H]3F)c2n1,LAI,-,PBL(PHA STIM.) + PBL,-,<3.8 µM
COc1ccc2sc3c(c2c1)SCC/C3=N\O,-,-,OM-10.1,-,0.1 µM
C=CCOC(=O)N[C@@H](Cc1ccccc1)[C@H](O)CN(CC1CCCC1)S(=O)(=O)c1ccc(Cl)cc1,IIIB,-,CEM,-,<10 µM
C=C1CN(S(=O)(=O)c2ccc(C)cc2)CCCN(Cc2ccccc2)CCCN(S(=O)(=O)c2ccc(C)cc2)C1,CI #17,-,PBMC,-,0.86 µg/mL
CC(C)CN(C[C@@H](O)[C@H](Cc1ccccc1)NC(=O)O[C@H]1CO[C@H]2OCC[C@H]21)S(=O)(=O)c1ccc2c(c1)OCO2,MDR/MM,-,PHA-PBM,-,0.0038 µM
OC[C@@H]1CC[C@H](n2cnc3cccnc32)O1,GB8,-,JM,-,>1000 µM
O=C1NCC(CCC2(C(F)(F)F)OC(=O)Nc3ccc(Cl)cc32)O1,IIIB,-,MT-4,-,<78 µM
COC(=O)[C@H](C)NP(=O)(OC[C@@H]1CC[C@H](n2cc(C)c(=O)[nH]c2=O)O1)Oc1ccc(OC)cc1,IIIB,-,PBMC,-,1.3 µM
CC(=O)OCc1c(C)c2ccc3c(c2oc1=O)[C@@H](OC(=O)C12CCC(C)(C(=O)O1)C2(C)C)[C@@H](OC(=O)C12CCC(C)(C(=O)O1)C2(C)C)C(C)(C)O3,IIIB,-,H9,-,0.028 µM
COC(=O)[C@H](C)NP(=O)(OC[C@@H]1CC[C@H](n2cc(C)c(=O)[nH]c2=O)O1)Oc1ccc(Cl)cc1,IIIB,-,PBMC,-,2.1 µM
Cc1c(C[N+](=O)[O-])c(=O)oc2c3c(ccc12)OC(C)(C)[C@H](OC(=O)C12CCC(C)(C(=O)O1)C2(C)C)[C@@H]3OC(=O)C12CCC(C)(C(=O)O1)C2(C)C,IIIB,-,H9,-,0.023 µM
COc1cc(/C=C2\C(=O)N(c3ccccc3)N=C2c2ccccc2)cc(Br)c1OCC(N)=O,IIIB,-,MT-2,-,<10 µM
Nc1ccc2c(O)c(Br)c(S(=O)(=O)O)cc2c1Br,89.6,-,PBMC,-,~125 µM
O=C1NCCN(Cc2cccc([N+](=O)[O-])c2)c2c1sc1ccc([N+](=O)[O-])cc21,-,-,OM-10.1,-,0.01 µM
Nc1nc(Cl)c2ncn(CCCCCB(O)O)c2n1,BaL,-,PBMC,-,~0.3 µM
COC(=O)[C@H](C)NP(=O)(OC[C@@H]1C=C[C@H](n2cc(C)c(=O)[nH]c2=O)O1)Oc1ccc(OC)cc1,IIIB,-,PBMC,-,0.004 µM
CC1(C)CCC2=C(O1)c1ccccc1C(=O)C2=O,IIIB,-,PBMC,-,~0.5 µM
O=C(N[C@@H](Cc1ccccc1)C(=O)NCC[C@@H](CO)NC(=O)[C@H](Cc1ccccc1)NC(=O)OCc1ccccc1)OCc1ccccc1,IIIB,-,MOLT-4,-,2.3 µM
COC(=O)c1sccc1NC(=O)CSc1nnnn1-c1c(C)cc(C)cc1C,-,-,MT-4,-,<10 µM
CC(=O)Oc1ccccc1C(=O)O,BaL,-,PBMC,-,527 µM
Nc1nccc2c1ncn2[C@H]1CC[C@@H](CO)O1,A018,-,PBMC,-,2.5 µM
O=C1Nc2ccc(Cl)cc2[C@@](C#Cc2ccccc2)(C(F)(F)F)O1,IIIB,-,MT-4,-,<0.012 µM
CC12CCC[C@@]3(COC1=O)C1CC[C@@H]4C[C@@]1(CC[C@H]23)C[C@@]4(C)O,IIIB,-,H9,-,3.1 µM
COC(=O)C(C)NP(=O)(OC[C@@H]1C=C[C@H](n2cc(C)c(=O)[nH]c2=O)O1)Oc1ccc(OC)cc1,IIIB,-,PBMC,-,0.004 µM
COC(=O)[C@H](C)NP(=O)(OC[C@@H]1C=C[C@H](n2cc(C)c(=O)[nH]c2=O)O1)Oc1ccc(F)cc1,IIIB,-,PBMC,-,0.001 µM
Nc1nc(=O)n([C@H]2C=C[C@@H](CO)O2)cc1F,NL4-3 WT,-,MT-4,-,<1.2 µM
CC(C)CN(C[C@@H](O)[C@H](Cc1ccccc1)NC(=O)OCC1CCOC1)S(=O)(=O)c1ccc(F)cc1,IIIB,-,CEM,-,<1 µM
CC(=O)N(C)CCN(C)c1nc(C(=O)NCc2ccc(F)cc2)c(O)c2ncccc12,-,-,MT-4,50% human serum,<0.625 µM
COc1ccc2sc3c(c2c1)N(CC(C)C)CCn1cnnc1-3,-,-,OM-10.1,-,0.02 µM
CC(=O)OCc1cc2ccc3c(c2oc1=O)[C@@H](OC(=O)[C@@]12CC[C@@](C)(C(=O)O1)C2(C)C)[C@@H](OC(=O)[C@@]12CC[C@@](C)(C(=O)O1)C2(C)C)C(C)(C)O3,IIIB,-,H9,-,0.06767 µM
COc1ccccc1CCNC(=S)Nc1ccccn1,IIIB,-,PBMC,-,0.01 µM
C[C@H](NC(=O)[C@@H]1CCCN1C(=O)[C@@H](NC(=O)[C@@H](NC(=O)[C@H](CC(=O)O)NC(=O)[C@H](CO)NC(=O)[C@@H](N)CO)[C@@H](C)O)[C@@H](C)O)C(=O)O,JR-CSF,-,PBMC (PHA stimulated) + PBMC,7 d,>0.1 µM
CC(=O)CC(c1ccccc1)c1c(O)c2ccccc2oc1=O,-,-,U1,-,0.001–0.01 µM
COc1ccccc1C#CC1(C(F)(F)F)OC(=O)Nc2ccc(Cl)cc21,IIIB,-,MT-4,-,<0.006 µM
CCCCN1CCNC(=O)C2=C1c1cc(OC)ccc1CC2,-,-,OM-10.1,-,0.8 µM
Nc1nccc2c1ncn2[C@@H]1C[C@H](CO)[C@@H](O)[C@H]1O,A018,-,PBMC,-,0.22 µM
CC(C)CN(C[C@@H](O)[C@H](Cc1ccccc1)NC(=O)O[C@H]1CCOC1)S(=O)(=O)c1cccc(Cl)c1,IIIB,-,CEM,-,<1 µM
COc1ccc2ccc3c(c2c1)SC(C)CNC3=O,-,-,OM-10.1,-,0.2 µM
CCCCCCCCCCCCCCCCOCCCOP(=O)(O)COCCn1cnc2c(=O)[nH]c(N)nc21,-,-,-,-,0.00001 µM
COC(=O)[C@H](C)NP(=O)(OC[C@H]1O[C@@H](n2cc(C)c(=O)[nH]c2=O)C[C@@H]1N=[N+]=[N-])Oc1ccc(Br)cc1,IIIB,-,PBMC,-,0.006 µM
O=C(N[C@@H](Cc1ccccc1)C(=O)NCC[C@@H](CO)NC(=O)[C@H](Cc1ccccc1)NC(=O)c1cc2ccccc2[nH]1)c1cc2ccccc2[nH]1,IIIB,-,MOLT-4,-,3.8 µM
Cc1c(CBr)c(=O)oc2c3c(ccc12)OC(C)(C)[C@H](OC(=O)C12CCC(C)(C(=O)O1)C2(C)C)[C@@H]3OC(=O)C12CCC(C)(C(=O)O1)C2(C)C,IIIB,-,H9,-,0.00741 µM
CCc1c(Sc2ccccc2)n(COCc2ccccc2)c(=O)[nH]c1=O,A012B,-,MT-4,-,0.0019 µM
COC(=O)[C@H](C)NP(=O)(OC[C@@H]1C=C[C@H](n2cc(C)c(=O)[nH]c2=O)O1)Oc1cccc(Br)c1,IIIB,-,PBMC,-,0.002 µM
CC(=O)Nc1cccc(S(=O)(=O)N(CC(C)C)C[C@@H](O)[C@H](Cc2ccccc2)NC(=O)OC2CCOC2)c1,IIIB,-,CEM,-,<1 µM
CC(C)CCC[C@@H](C)[C@H]1CC[C@H]2[C@@H]3CC[C@H]4CC(=C(c5cc(Cl)c(O)c(C(=O)O)c5)c5cc(Cl)c(O)c(C(=O)O)c5)CC[C@]4(C)[C@H]3CC[C@]12C,WEJO,-,PBLC,-,59.3 µM
C/C(CC(=O)Nc1ccc(C(N)=O)cc1)=N\NC(=O)COc1ccc2ccccc2c1,IIIB,-,MT-2,-,>10 µM
Nc1nccc2c1ncn2[C@@H]1C=C(CO)[C@@H](O)[C@H]1O,A012,-,PBMC,-,0.01 µM
O=C(CSc1nnnn1-c1ccccc1Br)Nc1ccccc1[N+](=O)[O-],-,-,MT-4,-,<10 µM
CCOc1cccc(-c2cc(C(=O)N/N=C/c3ccc(OC)c(CN4CCOCC4)c3)c3ccccc3n2)c1,IIIB,-,MT-2,-,<10 µM
COc1ccc2sc3c(c2c1)SCC(C)/C3=N\OC(C)=O,-,-,OM-10.1,-,0.2 µM
CC(C)CN(C[C@@H](O)[C@H](Cc1ccccc1)NC(=O)[C@@H](NC(=O)OCc1ccccn1)C(C)C)S(=O)(=O)c1ccc(F)cc1,IIIB,-,CEM,-,<1 µM
Cc1cc(NC(=O)C(=O)NCCN2CCN(C(=O)c3ccccc3F)CC2)ccc1Br,IIIB,-,MT-2,-,>10 µM
CC(C)=CCOc1cc(NC(=S)c2ccoc2C)ccc1Cl,NL4-3,RT-Y181C,CEM + CEM-SS,-,0.08 µM
CC(=O)Nc1cc(S(=O)(=O)N(CC(C)C)C[C@@H](O)[C@H](Cc2ccccc2)NC(=O)[C@H](CC(N)=O)NC(=O)c2ccc3ccccc3n2)ccc1F,IIIB,-,CEM,-,<1 µM
COC(=O)[C@H](C)NP(=O)(OC[C@@H]1C=C[C@H](n2cc(C)c(=O)[nH]c2=O)O1)Oc1ccccc1Br,IIIB,-,PBMC,-,0.002 µM
CC(C)CN(C[C@@H](O)[C@H](Cc1ccccc1)NC(=O)OC(C)(C)C)S(=O)(=O)c1ccc(F)cc1F,IIIB,-,CEM,-,<10 µM
COc1cc2c(c3oc(=O)c(C)c(C)c13)[C@@H](OC(=O)C13CCC(C)(C(=O)O1)C3(C)C)[C@@H](OC(=O)C13CCC(C)(C(=O)O1)C3(C)C)C(C)(C)O2,IIIB,-,H9,-,1.95 µM
O=P(O)(O)OP(=O)(O)OP(=O)(O)O,IIIB,-,H9,-,>100 µg/mL
COc1cc2c(c3oc(=O)c(CBr)c(C)c13)[C@@H](OC(=O)C13CCC(C)(C(=O)O1)C3(C)C)[C@@H](OC(=O)C13CCC(C)(C(=O)O1)C3(C)C)C(C)(C)O2,IIIB,-,H9,-,1.62 µM
CC(C)(C)OC(=O)N[C@@H](Cc1ccccc1)C(=O)NCC[C@@H](CO)NC(=O)[C@H](Cc1ccccc1)NC(=O)OC(C)(C)C,IIIB,-,MOLT-4,-,3.6 µM

5 of the rows above, restated:

smiles | strain or isolate | mutations | cell line | conditions | value
Nc1ccc2c(O)c(Br)c(S(=O)(=O)O)cc2c1Br | 89.6 | - | PBMC | - | ~125 µM
CN(CC(=O)Nc1ccccc1[N+](=O)[O-])c1nnnn1-c1cccc2ccccc12 | - | - | MT-4 | - | <10 µM
CC(C)CN(C[C@@H](O)[C@H](Cc1ccccc1)NC(=O)O[C@H]1CO[C@H]2OCC[C@H]21)S(=O)(=O)c1ccc2c(c1)OCO2 | MDR/MM | - | PHA-PBM | - | 0.0038 µM
CC(C)CN(C[C@@H](O)[C@H](Cc1ccccc1)NC(=O)[C@@H](NC(=O)OCc1ccccn1)C(C)C)S(=O)(=O)c1ccc(F)cc1 | IIIB | - | CEM | - | <1 µM
COC(=O)[C@H](C)NP(=O)(OC[C@@H]1C=C[C@H](n2cc(C)c(=O)[nH]c2=O)O1)Oc1ccc(OC)cc1 | IIIB | - | PBMC | - | 0.004 µM